A mixed list of measured activities; the numbers were collected in NIAID ChemDB.

All rows: whole-cell or culture tests; species: Mycobacterium avium complex

MIC50, MIC90 and the like: level of inhibition, or share of isolates inhibited. Inhibition is in % at the dose shown (toxicity tests: loss of growth or viability). ECn is the concentration giving n% inhibition of infection, replication or growth. Rows are shuffled and stem from different studies.

CCCC(=O)O[C@H]1[C@H](C)OC(O[C@H]2[C@H](C)[C@@H](O[C@@H]3O[C@H](C)C[C@H](N(C)C)[C@H]3O)C(C)(O)C[C@@H](C)/C(=N\OCCCOc3ccccc3)[C@H](C)[C@@H](O)[C@](C)(O)[C@@H](CC)OC(=O)[C@@H]2C)C[C@@]1(C)OC ; strain or isolate: 20092 (clarithromycin-resistant) ; endpoint: MIC ; value: 0.78 µg/mL
C[C@@H]1CN(c2c(F)c(N)c3c(=O)c(C(=O)O)cn(C4CC4)c3c2F)C[C@H](C)N1 ; strain or isolate: N-962 (HIV+) ; endpoint: MIC ; value: 1 µg/mL
CC1(C)N=C(N)N=C(N)N1OCCCOc1cc(Cl)c(Cl)cc1Cl ; strain or isolate: 9141 ; endpoint: MIC ; value: 2 µg/mL
NC[C@H]1O[C@H](O[C@H]2[C@H](O)[C@@H](O[C@H]3O[C@H](CO)[C@@H](O)[C@H](N)[C@H]3O)[C@H](N)C[C@@H]2N)[C@H](N)C[C@@H]1O ; strain or isolate: 25 isolates ; endpoint: MBC90 ; value: >64 µg/mL
NC(=O)c1cnccn1 ; strain or isolate: 33 strains (pyrazinamidase-positive) ; endpoint: EC50 ; value: >100 µg/mL
CC[C@H]1OC(=O)[C@H](C)[C@@H](OC2C[C@@](C)(OC)[C@@H](O)[C@H](C)O2)[C@H](C)[C@@H](O[C@@H]2O[C@H](C)C[C@H](N(C)C)[C@H]2O)C(C)(O)C[C@@H](C)/C(=N\OCCSc2ccccc2)[C@H](C)[C@@H](O)[C@]1(C)O ; strain or isolate: 20096 (clarithromycin-resistant) ; endpoint: MIC ; value: 12.5 µg/mL
CC[C@H]1OC(=O)[C@H](C)[C@@H](O[C@H]2C[C@@](C)(OC)[C@@H](O)[C@H](C)O2)[C@H](C)[C@@H](O[C@@H]2O[C@H](C)C[C@H](N(C)C)[C@H]2O)[C@](C)(OC)C[C@@H](C)C(=O)[C@H](C)[C@@H](O)[C@]1(C)O ; strain or isolate: 20 strains ; endpoint: MIC50 ; value: 8 µg/mL
CO[C@H]1/C=C/O[C@@]2(C)Oc3c(C)c(O)c4c(O)c(c5c(c4c3C2=O)NC2(CCN(CC(C)C)CC2)N=5)=NC(=O)/C(C)=C\C=C\[C@H](C)[C@H](O)[C@@H](C)[C@@H](O)[C@@H](C)[C@H](OC(C)=O)[C@@H]1C ; strain or isolate: 1317-2 ; endpoint: MBC ; value: 32 µg/mL
CC[C@H]1OC(=O)[C@H](C)[C@@H](O[C@H]2C[C@@](C)(OC)[C@@H](O)[C@H](C)O2)[C@H](C)[C@@H](O[C@@H]2O[C@H](C)C[C@H](N(C)C)[C@H]2O)[C@](C)(O)C[C@@H](C)C(=O)[C@H](C)[C@@H](O)[C@]1(C)O ; strain or isolate: 25 isolates ; endpoint: MBC90 ; value: >8 µg/mL
Cc1ccn2c(C(=O)NCc3ccc4c(c3)CCO4)c(C)nc2c1 ; method: MTT ; strain or isolate: Clinical isolate PRV ; endpoint: MIC ; value: 4 µg/mL
CO[C@H]1/C=C/O[C@@]2(C)Oc3c(C)c(O)c4c(=O)c(c5oc6cc(N7CCN(CC(C)C)CC7)cc(=O)c6nc5c4c3=C2O)NC(=O)/C(C)=C\C=C\[C@H](C)[C@H](O)[C@@H](C)[C@@H](O)[C@@H](C)[C@H](OC(C)=O)[C@@H]1C ; strain or isolate: N-444 ; endpoint: MBC ; value: >4 µg/mL
CC[C@H]1OC(=O)[C@H](C)[C@@H](O[C@H]2C[C@@](C)(OC)[C@@H](O)[C@H](C)O2)[C@H](C)[C@@H](O[C@@H]2O[C@H](C)C[C@H](N(C)C)[C@H]2O)[C@](C)(O)C[C@@H](C)CN(C)[C@H](C)[C@@H](O)[C@]1(C)O ; strain or isolate: 20 isolates ; endpoint: Median MIC ; value: 8 µg/mL
COc1ccc(/C(C)=N/NC(N)=S)cc1 ; strain or isolate: 108 ; endpoint: MIC ; value: 0.125 µg/mL
CO[C@H]1/C=C/O[C@@]2(C)Oc3c(C)c(O)c4c(=O)c(c5oc6cc(N7CCN(CC(C)C)CC7)cc(=O)c6nc5c4c3=C2O)NC(=O)/C(C)=C\C=C\[C@H](C)[C@H](O)[C@@H](C)[C@@H](O)[C@@H](C)[C@H](OC(C)=O)[C@@H]1C ; strain or isolate: N-444 ; endpoint: MBC ; value: >4 µg/mL
CCc1nc(N)nc(N)c1-c1ccc(Cl)cc1 ; strain or isolate: DW17 ; endpoint: MIC ; value: 32 µg/mL
CCCCCCCCCCCCC(=O)O[C@H]1[C@H](C)[C@@H](O[C@@H]2O[C@H](C)C[C@H](N(C)C)[C@H]2O)C(C)(O)C[C@@H](C)/C(=N\OCCCOc2ccccc2)[C@H](C)[C@@H](O)[C@](C)(O)[C@@H](CC)OC(=O)[C@@H]1C ; strain or isolate: 20096 (clarithromycin-resistant) ; endpoint: MIC ; value: >50 µg/mL
CCc1cc(C(N)=S)ccn1 ; method: agar ; strain or isolate: 56 strains ; endpoint: inhibition ; tested at: 5 µg/mL ; value: 68%
C[C@H]1COc2c(N3CCN(C)CC3)c(F)cc3c(=O)c(C(=O)O)cn1c23 ; strain or isolate: 25 isolates ; endpoint: MBC90 ; value: >8 µg/mL
C[C@@H]1CN(c2c(F)c(N)c3c(=O)c(C(=O)O)cn(C4CC4)c3c2F)C[C@H](C)N1 ; strain or isolate: ATCC 13950 ; endpoint: MBC ; value: 2 µg/mL
CO[C@H]1/C=C/O[C@@]2(C)Oc3c(C)c(O)c4c(O)c(c5c(c4c3C2=O)NC2(CCN(CC(C)C)CC2)N=5)=NC(=O)/C(C)=C\C=C\[C@H](C)[C@H](O)[C@@H](C)[C@@H](O)[C@@H](C)[C@H](OC(C)=O)[C@@H]1C ; strain or isolate: N-316 (HIV-) ; endpoint: MIC ; value: 0.0625 µg/mL
CCCCCCCCCCCCNNC(=O)O[C@H]1[C@H](O[C@@H]2[C@@H](C)[C@H](O[C@H]3C[C@@](C)(OC)[C@@H](OC(C)=O)[C@H](C)O3)[C@@H](C)C(=O)O[C@H](CC)[C@@](C)(O)[C@H](O)[C@@H](C)/C(=N/OCCCC3CCCCC3)[C@H](C)CC2(C)O)O[C@H](C)C[C@@H]1N(C)C ; strain or isolate: 20039 (clarithromycin-susceptible) ; endpoint: MIC ; value: 50 µg/mL
N[C@@H]1CN(c2c(F)cc3c(=O)c(C(=O)O)cn([C@@H]4C[C@@H]4F)c3c2Cl)CC12CC2 ; strain or isolate: 101 ; cells: Macrophages ; endpoint: inhibition ; tested at: 10 µg/mL ; value: 100%
Cc1ccc2nc(C)c(C(=O)NCc3ccc(C(F)(F)F)cc3)n2c1 ; method: MTT ; strain or isolate: Clinical isolate LPR ; endpoint: MIC ; value: 2 µg/mL
C[C@H]1C[C@H](N)CN1c1cc2c(cc1F)c(=O)c(C(=O)O)cn2-c1ccc(F)cc1F ; strain or isolate: 25 isolates ; endpoint: MBC90 ; value: >8 µg/mL
CN[C@@H]1[C@H](O[C@H]2[C@H](O[C@H]3[C@H](O)[C@@H](O)[C@H](N=C(N)N)[C@@H](O)[C@@H]3N=C(N)N)O[C@@H](C)[C@]2(O)C=O)O[C@@H](CO)[C@H](O)[C@H]1O ; strain or isolate: 25 isolates ; endpoint: MBC90 ; value: >64 µg/mL
CO[C@H]1/C=C/O[C@@]2(C)Oc3c(C)c(O)c4c(=O)c(c5oc6cc(N7CCN(CC(C)C)CC7)cc(=O)c6nc5c4c3=C2O)NC(=O)/C(C)=C\C=C\[C@H](C)[C@H](O)[C@@H](C)[C@@H](O)[C@@H](C)[C@H](OC(C)=O)[C@@H]1C ; strain or isolate: N-979 (HIV+) ; endpoint: MIC ; value: 0.05 µg/mL
CC[C@H]1OC(=O)[C@H](C)[C@@H](O[C@H]2C[C@@](C)(OC)[C@@H](OC(C)=O)[C@H](C)O2)[C@H](C)[C@@H](O[C@@H]2O[C@H](C)C[C@H](N(C)C)[C@H]2OC(=O)NNC2CCCCC2)C(C)(O)C[C@@H](C)/C(=N\OCCCC2CCCCC2)[C@H](C)[C@@H](O)[C@]1(C)O ; strain or isolate: 20092 (clarithromycin-resistant) ; endpoint: MIC ; value: 0.39 µg/mL
NC[C@@H]1O[C@H](O[C@H]2[C@@H](O)[C@H](O[C@@H]3[C@@H](O)[C@H](N)C[C@H](N)[C@H]3O[C@H]3O[C@H](CN)[C@@H](O)[C@H](O)[C@H]3N)O[C@@H]2CO)[C@H](N)[C@@H](O)[C@@H]1O ; strain or isolate: 25 isolates ; endpoint: MBC90 ; value: >64 µg/mL